Measurements reported in PubChem BioAssay AID624099 (ICCB-Longwood, 2012)
Screen: 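Knock-downs relieving repression by E2 of an HPV18 LCR luciferase reporter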 (primary screen). Cells: human C33A cervical carcinoma cells (HPV-negative) stably expressing BPV1 E2 and an HPV18 LCR luciferase reporter. Reagent: siRNA pool against human genes, 40 nM. Duration: 72 h. Detection: 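Per-well luciferase luminescence, z-scored on each plate against the plate mean and SD with control wells left out, then averaged across three replicate plates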. Scale: mean z-score and z-score: higher = stronger reporter signal, weaker E2 silencing. Hit rule: 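Hit if mean z-score reaches 2 and two or more of three replicate z-scores also reach 2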.
The whole screen tested about 21,000 reagents; this is a part drawn at random. Of all reagents, 497 (2.4%) are marked active. 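Higher z means weaker E2 silencing; only reporter increases were scored, and knock-downs that hurt cell survival may mask genuine repressor factors.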 Reagents against one gene are numbered here.

target,pool no.,mean z-score,"z-score, replicate A","z-score, replicate B","z-score, replicate C",activity call
AVP (arginine vasopressin),1,0.93,0.73,1.18,0.88,inactive
CCDC24 (coiled-coil domain containing 24),1,0.63,-0.22,0.93,1.2,inactive
DMRT1 (doublesex and mab-3 related transcription factor 1),1,-0.88,-0.55,-0.81,-1.27,inactive
SGCD (sarcoglycan delta),1,-0.47,-0.38,-0.36,-0.68,inactive
LOC388476 (retired record),1,0.14,0.55,-0.02,-0.12,inactive
LEPR (leptin receptor),1,-0.56,-0.59,-0.53,-0.58,inactive
NEK6 (NIMA related kinase 6),1,0.48,0.18,0.58,0.67,inactive
PRPF38A (pre-mRNA processing factor 38A),1,-0.76,-0.74,-0.82,-0.72,inactive
SOCS2 (suppressor of cytokine signaling 2),1,-0.66,-0.53,-0.87,-0.58,inactive
CETN1 (centrin 1),1,-0.03,-0.4,-0.03,0.35,inactive
SGPP1 (sphingosine-1-phosphate phosphatase 1),1,-0.11,-0.31,0.3,-0.31,inactive
SNX6 (sorting nexin 6),1,-2.01,-2.26,-2.4,-1.37,inactive
VHL (von Hippel-Lindau tumor suppressor),1,0.09,-0.08,0.09,0.26,inactive
DPY19L1 (dpy-19 like C-mannosyltransferase 1),1,0.33,0.45,0.08,0.45,inactive
MORC4 (MORC family CW-type zinc finger 4),1,-0.41,-0.8,-0.46,0.04,inactive
PF4V1 (platelet factor 4 variant 1),1,1.64,1.53,1.78,1.62,inactive
MTNR1A (melatonin receptor 1A),1,-0.2,0.07,-0.27,-0.41,inactive
STK38 (serine/threonine kinase 38),1,-0.83,-1.04,-0.45,-1.01,inactive
"GOLGA6L5P (golgin A6 family like 5, pseudogene)",1,0.94,0.99,0.67,1.17,inactive
"GOLGA6L5P (golgin A6 family like 5, pseudogene)",2,2.74,2.47,2.7,3.05,active
TMEM238L (transmembrane protein 238 like),1,0.7,0.74,0.72,0.65,inactive
LINC01548 (long independently transcribed non-coding RNA 1548),1,1.34,1.23,1.19,1.59,inactive
SLC35A5,1,0.51,0.07,0.71,0.76,inactive
XAGE1B (X antigen family member 1B),1,-1.65,-1.34,-1.75,-1.86,inactive
NSUN3 (NOP2/Sun RNA methyltransferase 3),1,1.29,1.03,1.29,1.56,inactive
PFDN6 (prefoldin subunit 6),1,1.59,1.39,1.64,1.75,inactive
H4C6 (H4 clustered histone 6),1,-0.44,-0.65,-0.48,-0.2,inactive
NDUFB11 (NADH:ubiquinone oxidoreductase subunit B11),1,-2.01,-2,-1.89,-2.14,inactive
FAM234B (family with sequence similarity 234 member B),1,-0.32,-0.34,-0.12,-0.51,inactive
HSD17B4 (hydroxysteroid 17-beta dehydrogenase 4),1,0.87,0.93,0.89,0.8,inactive
RDH8 (retinol dehydrogenase 8),1,-0.92,-0.85,-1.18,-0.72,inactive
CPSF4 (cleavage and polyadenylation specific factor 4),1,-0.24,-0.14,-0.21,-0.38,inactive

Reformatted: results already given
| target | pool no. | mean z-score | z-score, replicate A | z-score, replicate B | z-score, replicate C | activity call |
| --- | --- | --- | --- | --- | --- | --- |
| MTNR1A (melatonin receptor 1A) | 1 | -0.2 | 0.07 | -0.27 | -0.41 | inactive |
| STK38 (serine/threonine kinase 38) | 1 | -0.83 | -1.04 | -0.45 | -1.01 | inactive |
| GOLGA6L5P (golgin A6 family like 5, pseudogene) | 1 | 0.94 | 0.99 | 0.67 | 1.17 | inactive |
| GOLGA6L5P (golgin A6 family like 5, pseudogene) | 2 | 2.74 | 2.47 | 2.7 | 3.05 | active |
| TMEM238L (transmembrane protein 238 like) | 1 | 0.7 | 0.74 | 0.72 | 0.65 | inactive |
| LINC01548 (long independently transcribed non-coding RNA 1548) | 1 | 1.34 | 1.23 | 1.19 | 1.59 | inactive |

The list goes on:
target,pool no.,mean z-score,"z-score, replicate A","z-score, replicate B","z-score, replicate C",activity call
SERPINA10 (serpin family A member 10),1,-1.16,-1.25,-1.09,-1.15,inactive
"TMEM277P (transmembrane protein 277, pseudogene)",1,0.05,0.06,0.12,-0.04,inactive
F2R (coagulation factor II thrombin receptor),1,0.49,1.02,0.23,0.23,inactive
MAP6 (microtubule associated protein 6),1,-1.09,-1.29,-1.13,-0.84,inactive
GCNT2 (glucosaminyl (N-acetyl) transferase 2 (I blood group)),1,0.33,0.33,0.47,0.19,inactive
GTPBP1 (GTP binding protein 1),1,0.27,0.01,0.23,0.57,inactive
RGS2 (regulator of G protein signaling 2),1,-0.42,-0.59,-0.24,-0.43,inactive
JPH1 (junctophilin 1),1,-0.15,-0.58,0.46,-0.33,inactive
ERGIC3 (ERGIC and golgi 3),1,-0.14,-0.64,0,0.21,inactive
GRK6 (G protein-coupled receptor kinase 6),1,-0.78,-0.84,-0.69,-0.8,inactive
DAD1 (defender against cell death 1),1,-1.61,-1.68,-1.45,-1.7,inactive
STEAP1 (STEAP family member 1),1,0.37,-0.04,0.51,0.63,inactive
NMB (neuromedin B),1,0.05,-0.42,0.34,0.24,inactive
CEP104 (centrosomal protein 104),1,-0.54,-0.52,-0.57,-0.52,inactive
TIGD3 (tigger transposable element derived 3),1,-2.04,-2.49,-2.04,-1.6,inactive
RYR2 (ryanodine receptor 2),1,1.32,1.2,1.31,1.47,inactive
IL13RA2 (interleukin 13 receptor subunit alpha 2),1,-1.2,-1.16,-1.17,-1.28,inactive
UPF1 (UPF1 RNA helicase and ATPase),1,0.55,0.48,0.54,0.62,inactive
TMEM132B (transmembrane protein 132B),1,-1.55,-1.75,-1.26,-1.65,inactive
TMEM132B (transmembrane protein 132B),2,0.9,0.84,0.76,1.12,inactive
SERTAD2 (SERTA domain containing 2),1,-0.73,-0.16,-0.9,-1.13,inactive
HSPC047 (retired record),1,-1.02,-1.09,-0.86,-1.11,inactive
"SEC24A (SEC24 homolog A, COPII component)",1,-0.43,-0.35,-0.54,-0.4,inactive
IGBP1 (immunoglobulin binding protein 1),1,-0.02,0.1,-0.14,-0.03,inactive
LCN1P1 (lipocalin 1 pseudogene 1),1,0.44,0.87,0.71,-0.26,inactive
